Literature values, collected in patent US20120149888A1, “SYNTHESIS OF ARA-2'-O-METHYL-NUCLEOSIDES, CORRESPONDING PHOSPHORAMIDITES AND OLIGONUCLEOTIDES INCORPORATING NOVEL MODIFICATIONS FOR BIOLOGICAL APPLICATION IN THERAPEUCTICS, DIAGNOSTICS, G- TETRAD FORMING OLIGONUCLEOTIDES AND APTAMERS” (priority 2009, published 2012).

Columns and labels:
[1] = tested on: P815-E176; conditions: 5-Fluorouracil-resistant P815-E176
[2] = tested on: L1210 TG/R; conditions: Thioguanine-resistant L1210 TG/R

## 6-hydroxy-9-{3-[bis(2″-chloroethyl)amino}purine
[1]
  Response to chemotherapeutic drugs: collaterally sensitive: No. 30020
[2]
  Response to chemotherapeutic drugs: collaterally sensitive: No. 30020
